Measured values from several laboratories, pooled; numbers as filed in NIAID ChemDB.

Common to all: enzyme or target tests; agent: HIV-1; target: RNase H; measure: IC50

ICn is the concentration giving n% inhibition. An empty or dashed field is not shown. Conditions beyond the fields shown may differ between rows.

compound	changes	method	result
O=c1oc(-c2ccc(O)cc2)nc2sc3c(c12)CCCCC3		RNase H / fluorescence	21 µM
O=C(Nc1sc2c(c1C(=O)Nc1ccccn1)CCCCC2)c1ccccc1		RNase H / fluorescence	14.8 µM
CC(=O)COc1ccc(O)c2c1C(=O)c1ccccc1C2=O			>100 µM
Cc1nc2ccccc2c(=O)o1		RNase H / fluorescence	3.61 µM
O=[N+]([O-])c1ccccc1S(=O)(=O)c1ccccc1			>300 µM
O=c1nc(NCc2ccc(-c3ccccn3)s2)c2cccnc2n1O		radiometric	0.013 µM
CCOC(=O)C(=O)CC(=O)/C=C/c1cc(-c2ccccc2)cn1Cc1ccc(F)cc1		substrate cleavage / fluorescence	8 µM
COC(=O)c1c(C)cc(=O)c(O)c(O)c1O		RNase H / fluorescence	1.5 µM
O=C1c2ccccc2C(=O)c2c(OCC#CCN3CCOCC3)ccc(O)c21			>100 µM
O=C(OC[C@H]1O[C@@H](OCCc2ccc(O)cc2)[C@H](O)[C@@H](O)[C@@H]1O)c1cc(O)c(O)c(O)c1		FRET	17.4 µM
O=C(CCc1ccccc1)Nc1sc2c(c1C(=O)Nc1ccccn1)CCCCC2		RNase H / fluorescence	14.6 µM
C/C(COc1ccc2c(c1O)C(=O)c1ccccc1C2=O)=N\NC(=O)c1cccnc1		RNase H	90 µM
O=C(N/N=C/c1ccccc1O)c1cc(O)c(O)c(O)c1		RNase H / fluorescence	5.8 µM
CC(C)(O)[C@H]1CC=C(COC2O[C@@H](CO[C@H]3OC[C@H](O)[C@@H](O)[C@@H]3O)[C@H](O)[C@@H](O)[C@@H]2O)CC1		FRET	>20 µM
COc1ccc(C(=O)/C=C/c2ccc3ccccc3c2OC)cc1		RNase H / substrate cleavage	9 µM
NC(=O)c1c(NC(=O)c2ccc(Cl)cc2)sc2c1CCCCC2		RNase H / fluorescence	62.7 µM
Nc1nc(OCCc2ccc([N+](=O)[O-])cc2)c2ncn([C@@H]3O[C@H](COP(O)(=S)O[C@H]4[C@@H](F)[C@H](n5cnc6c(N)ncnc65)O[C@@H]4CO)[C@@H](O)[C@H]3O)c2n1		RNase H	40 µM
Cc1ccc(Cl)cc1Nc1nc(C(F)(F)F)ccc1C(=O)NN1CCN(c2ccccc2)CC1		RNase H / absorbance	>100 µM
CCCCN(CCCC)c1nc(OCCc2ccc([N+](=O)[O-])cc2)c2ncn([C@@H]3O[C@H](COP(O)(=S)O[C@H]4[C@@H](F)[C@H](n5cnc6c(N)ncnc65)O[C@@H]4CO)[C@@H](O)[C@H]3O)c2n1		RNase H	15 µM
OC[C@H]1O[C@@H](OCCc2ccc(O)cc2)[C@H](O)[C@@H](O)[C@@H]1O		FRET	>20 µM
COc1cccc(Cn2cccc2/C=C/C(=O)CC(=O)C(=O)O)c1	R557A	substrate cleavage / fluorescence	>100 µM
O=C1OCc2cc(=O)c(O)c(O)c(O)c21		RNase H / fluorescence	1.2 µM
Cc1ccc(Cl)cc1Nc1nc(C(F)(F)F)ccc1C(=O)NN1CCN(c2cccc(Cl)c2)CC1		RNase H / absorbance	18 µM
O=C1c2ccccc2C(=O)c2c1ccc(O)c2O		RNase H	>100 µM
COc1ccc(-c2nc3sc4c(c3c(=O)o2)CCCCC4)cc1		RNase H / fluorescence	14.1 µM
O=C(Nc1sc2c(c1C(=O)Nc1ccccn1)CCCCC2)c1ccc(Cl)cc1		RNase H / fluorescence	17.78 µM
CCOC(=O)C(=O)CC(=O)/C=C/c1cccn1Cc1ccc(C)cc1C	Y501A	substrate cleavage / fluorescence	>100 µM
Nc1ncnc2c1ncn2[C@@H]1O[C@H](CO)[C@@H](OP(O)(=S)OC[C@H]2O[C@@H](n3cnc4c(=O)[nH]c(NCc5cccc6ccccc56)nc43)[C@H](O)[C@@H]2O)[C@H]1F		RNase H	40 µM
O=C(/C=C/c1cccn1Cc1ccccc1Cl)CC(=O)C(=O)O	Q475A	substrate cleavage / fluorescence	6.3 µM
CC(=O)COc1ccc2c(c1O)C(=O)c1ccccc1C2=O		RNase H	>100 µM
COC(=O)[C@]1(O)C[C@@H](O)[C@@H](O)[C@H](OC(=O)/C=C/c2ccc(O)c(O)c2)C1		FRET	>20 µM
Cc1cc(O)c2c(c1)C(=O)c1cc(O)cc(O)c1C2=O		RNase H	75 µM
O=C(Oc1ccc(O)c2c1C(=O)c1ccccc1C2=O)c1ccccc1			>100 µM
COc1c(/C=C/C(=O)c2cccc([N+](=O)[O-])c2)ccc2ccccc12		RNase H / substrate cleavage	31 µM
CC(=O)COc1ccc2c(c1OC(C)=O)C(=O)c1ccccc1C2=O		RNase H	>100 µM
COc1c(/C=C/C(=O)c2ccc(Br)cc2)ccc2ccccc12		RNase H / substrate cleavage	47 µM
CC(=O)Oc1ccc(OC(C)C(C)=O)c2c1C(=O)c1ccccc1C2=O			>100 µM
CCCC(C)Nc1nc(OCCc2ccc([N+](=O)[O-])cc2)c2ncn([C@@H]3O[C@H](COP(O)(=S)O[C@H]4C[C@H](n5cnc6c(N)ncnc65)O[C@@H]4CO)[C@@H](O)[C@H]3O)c2n1		RNase H	3 µM
Cc1cc(O)c2c(c1)C(=O)c1cc(OCC(=O)c3ccccc3)cc(O)c1C2=O		RNase H	>100 µM
CO[C@@H]1[C@H](O)[C@@H](COP(=O)(O)O[C@H]2C[C@H](n3cnc4c(=O)[nH]c(N)nc43)O[C@@H]2CO)O[C@H]1n1cnc2c(=O)[nH]c(N)nc21		RNase H	8 µM
NC(=O)c1c(NC(=O)c2ccccc2O)sc2c1CCCCC2		RNase H / fluorescence	66.4 µM
O=c1nc(Nc2cccc(-c3cccc(CN4CCCCC4)c3)c2)c2cccnc2n1O		substrate cleavage / radiometric	0.355 µM
C#CC(O)/C=C/C/C=C/C=C/C=C/CC#CC(O)C#CC/C=C/C=C/C=C/CC(O)C#C		radiometric	>100 µM
O=C(Nc1sc2c(c1C(=O)Nc1ccccn1)CCCCC2)c1ccc(F)cc1Cl		RNase H / fluorescence	7.5 µM

2 of the rows above, restated:

compound | changes | method | result
O=C(CCc1ccccc1)Nc1sc2c(c1C(=O)Nc1ccccn1)CCCCC2 |  | RNase H / fluorescence | 14.6 µM
Nc1nc(OCCc2ccc([N+](=O)[O-])cc2)c2ncn([C@@H]3O[C@H](COP(O)(=S)O[C@H]4[C@@H](F)[C@H](n5cnc6c(N)ncnc65)O[C@@H]4CO)[C@@H](O)[C@H]3O)c2n1 |  | RNase H | 40 µM